# Values of other authors as cited in patent US20260382653A1, “METHOD AND COMPOSITIONS FOR TREATING BURN WOUNDS” (published 2026).
# Test system: biofilm
# Conditions: as Bi^+3; depending on the bacterial species; laboratory studies
substance,measurement,value
Bismuth,effective biofilm disruptor concentration,about 1 mg/L
